Compound potency records, mixed from different reports. Data source: NIAID ChemDB in PubChem.

Shared fields: growth or infection tests; agent: HIV-1; method: cytopathic effect / MTT; read-out: EC50

An empty or dashed field is not shown.

SMILES,strain,mutations,setting,cell line,value
Cc1c(C(C)(C)C)s/c(=N\S(=O)(=O)c2ccc(O)cc2)n1C,IIIB,,,MT-4,>25 µM
O=C(O)/C(O)=C(\Cc1ccccc1)c1cc(CCc2ccccc2)ncn1,IIIB,,,MT-4,>55 µM
CCCCCCCCCCCCCCCC(=O)OCC(COC(=O)CCCCCCCCCCCCCCC)OC(=O)CCC(=O)O[C@H](CN1C[C@H]2CCCC[C@H]2C[C@H]1C(=O)NC(C)(C)C)[C@H](Cc1ccccc1)NC(=O)[C@H](CC(N)=O)NC(=O)c1ccc2ccccc2n1,IIIB,,,MT-4,3.5 µM
CCOCn1c(Cc2ccccc2)c(C(C)C)c(=O)[nH]c1=O,IIIB WT,,,MT-4,0.0079 µM
COc1cc([C@H]2c3c(cc(OC)c(OC)c3OC)C[C@@H](C)[C@@H]2C)cc(C)c1OC,IIIB,,,MT-4,3.2 µM
CCOCn1c(Sc2ccccc2)c(CC)c(=O)[nH]c1=O,IIIB,,,MT-2,0.1 µM
Cc1c(Cc2c(F)cccc2F)nc(SCc2ccc(C(C)C)cc2)[nH]c1=O,,RT-Y188L,,MT-4,>62 µM
Nc1ccn([C@H]2CC[C@@H](CO)O2)c(=O)n1,IIIB,,,MT-4,0.018 µg/mL
O=[N+]([O-])c1ccccc1/C=N/c1nc2ccccc2s1,IIIB,,,MT-4,>25 µM
COc1ccc(S(=O)(=O)/N=c2\sc(C(C)(C)C)c(C)n2C)cc1,IIIB,,,MT-4,>25 µM
Nc1ncnc2c1ncn2[C@@H]1C[C@H](CO)[C@H]1CO,IIIB,,,MT-4,1.8 µM
CC(C)=CCN1Cc2cc(Cl)cc3[nH]c(=S)n(c23)C[C@@H]1C,IIIB,,,MT-4,0.056 µg/mL
S=C(NCCc1ccccn1)Nc1ccc(Br)cn1,IIIB,,,C8166,<0.015 µM
Nc1ncnc2c1ncn2C=C1CC1CO,IIIB Laboratory clade B,,,MT-4,>100 µM
Cc1cn([C@H]2C[C@H](N=[N+]=[N-])[C@@H](CO)O2)c(=O)[nH]c1=O,LAI,,,MT-4,0.014 µM
Cc1ccnc2c1NC(=O)c1cccnc1N2C1CC1,IIIB,,5 d,MT-4,0.311 µM
CO[C@H]1O[C@@H](n2ccc(=O)[nH]c2=O)C[C@@H]1N=[N+]=[N-],IIIB,,,MT-2,0.028 µM
CCOC(=O)CCNP(=O)(OC[C@@H]1O[C@H](n2cc(C)c(=O)[nH]c2=O)C[C@H]1N=[N+]=[N-])OC[C@H]1O[C@@H](n2cc(C)c(=O)[nH]c2=O)C[C@@H]1N=[N+]=[N-],IIIB,,,MT-4,0.79 µM
Cc1cn([C@H]2C[C@H](N=[N+]=[N-])[C@@H](CO)O2)c(=O)[nH]c1=O,IIIB,,,MT-4,0.0007 µg/mL
Cc1cn([C@H]2C[C@H](N=[N+]=[N-])[C@@H](CO)O2)c(=O)[nH]c1=O,IIIB,,,MT-4,0.002–0.042 µM
CC(C)(C)NC(=O)c1ccccc1C[C@@H](O)[C@H](Cc1ccccc1)NC(=O)[C@H](CC(N)=O)NC(=O)c1ccc2ccccc2n1,RF,,,CEM + CEM-SS,0.02 µM
CC(C)CN(C[C@@H](O)[C@H](Cc1ccccc1)NC(=O)O[C@H]1CCOC1)S(=O)(=O)c1ccc(N)cc1,IIIB,,,MT-4,0.12 µM
Nc1ncnc2c1ncn2CCOCP(=O)(O)O,,,,MT-4,2 µg/mL
Cc1c([Se]c2ccccc2)n(COCCO)c(=O)[nH]c1=O,IIIB,,,MT-2,21.8 µM
C[C@H]1Cn2c(=O)[nH]c3cc(Cl)cc(c32)CN1CCC1CC1,,,,MT-4,0.0166 µg/mL
C=C1C[C@@H](n2cnc3c(=O)[nH]c(N)nc32)[C@@H]1CO,IIIB,,,MT-4,>100 µM
CCCN(C)C(=O)Oc1nsnc1-c1c(Cl)ccc(C(=O)O)c1Cl,IIIB,,,MT-4,>256 µM
Nc1ncnc2c1ncn2CCOCP(=O)(O)O,RF,,,MT-4,20 µM
CC(C)(C)NC(=O)[C@@H]1C[C@@H]2CCCC[C@@H]2CN1C[C@@H](OC(=O)COc1ccc(C[C@H](N)C(=O)O)cc1)[C@H](Cc1ccccc1)NC(=O)[C@H](CC(N)=O)NC(=O)c1ccc2ccccc2n1,IIIB,,,MT-4,0.085 µM
CC(C)(C)NC(=O)[C@@H]1CCCN1C(=O)[C@@H](O)[C@H](Cc1ccccc1)NC(=O)[C@H](CC(N)=O)NC(=O)COc1cccc2ccccc12,IIIB,,,MT-4,0.09 µg/mL
Nc1nc(=O)n([C@H]2CC[C@H](CO)O2)cc1F,IIIB,,,MT-2,0.3 µM
Cc1cccc(C)c1OCC(=O)N[C@@H](Cc1ccccc1)[C@@H](O)C[C@H](Cc1ccccc1)NC(=O)[C@H](C(C)C)N1CCCNC1=O,IIIB,,,MT-4,0.033 µM
O=c1[nH]cnc2c1ncn2[C@H]1CC[C@@H](CO)O1,IIIB,,,,4.2 µM
Cc1ccnc2c1NC(=O)c1cccnc1N2C1CC1,,RT-K103N Y181C,,MT-4,>10 µM
CC(C)=CCN1Cc2cccc3[nH]c(=S)n(c23)C[C@H]1C,,,,MT-4,0.045 µg/mL
O=[N+]([O-])c1ccoc1C=Nc1nsc2ccccc12,IIIB,,,MT-4,>4 µM
C[C@@H]1O[C@H]2OCCC[C@H]2[C@H]1OC(=O)N[C@@H](Cc1ccccc1)[C@H](O)CN1C[C@H]2CCCC[C@H]2C[C@H]1C(=O)NC(C)(C)C,LAI,,,MT-2,0.039 µM
CC(C)(C)NC(=O)[C@@H]1C[C@@H]2CCCC[C@@H]2CN1C[C@@H](OC(=O)CCCCOc1ccc(C[C@H](N)C(=O)O)cc1)[C@H](Cc1ccccc1)NC(=O)[C@H](CC(N)=O)NC(=O)c1ccc2ccccc2n1,IIIB,,,MT-4,0.16 µM
O=C1c2ccccc2C(=O)N1CCOC(=S)N(C(=O)c1ccco1)c1ccc([N+](=O)[O-])cc1,N119 nevirapine-resistant (RT Y181C),RT-Y181C,,MT-4,>100 µM
CC(C)(C)NC(=O)[C@@H]1CN(Cc2cccnc2)CCN1C[C@@H](O)C[C@@H](Cc1ccccc1)C(=O)N[C@H]1c2ccccc2C[C@H]1O,NL4-3 B,,,MT-4,0.0073 µM
CCCN(C)C(=O)Oc1nsnc1-c1c(Cl)ccc(N)c1Cl,IIIB,,,PBMC,0.068 µM
CC(C)CN(C[C@@H](O)[C@H](Cc1ccccc1)NC(=O)O[C@H]1[C@H]2CCCO[C@H]2O[C@@H]1C)S(=O)(=O)c1ccc(N)cc1,LAI,,,MT-2,0.03 µM
Cc1ccnc2c1NC(=O)c1cccnc1N2C1CC1,NL432,,,MT-4,0.0068 µg/mL
COc1ccc(CN[C@@H](C(=O)N[C@H](C(=O)NCCn2ccnc2)C(C)C)[C@H](O)[C@H](Cc2ccccc2)NC(=O)[C@@H](NC(=O)OCc2ccccc2)C(C)C)cc1,IIIB,,,MT-4,1.6 µM
Nc1nc2c(ncn2C2CC(CO)(CO)C2)c(=O)[nH]1,IIIB,,,MT-4,>500 µM
O=S(=O)(O)OC1C(OS(=O)(=O)O)C(OS(=O)(=O)O)C(OS(=O)(=O)O)C(OS(=O)(=O)O)C1OS(=O)(=O)O,NL4-3,GP120-N323D,,MT-4,9.6 µg/mL
COc1ccc(CN[C@@H](C(=O)N[C@H](C(=O)Nc2nc3ccccc3s2)C(C)C)[C@H](O)[C@H](Cc2ccccc2)NC(=O)[C@@H](NC(=O)OCc2ccccc2)C(C)C)cc1,IIIB,,,MT-4,0.87 µM
Cc1c(C(C)(C)C)s/c(=N\S(=O)(=O)c2cccc(Cl)c2)n1C,IIIB,,,MT-4,0.2 µM
COc1ccc(-c2csc(/N=C/c3ccc(O)c(OC)c3)n2)cc1,IIIB,,,MT-4,>100 µM
CC(C)=CCN1Cc2cccc3[nH]c(=S)n(c23)C[C@@H]1C,,,,MT-4,0.008 µg/mL
CC(C)(C)NC(=O)[C@@H]1C[C@@H]2CCCC[C@@H]2CN1C[C@@H](O)[C@H](Cc1ccccc1)NC(=O)[C@H](CC(N)=O)NC(=O)c1ccc2ccccc2n1,IIIB,,,MT-4,0.0037 µg/mL
Cc1cn([C@H]2C[C@H](N=[N+]=[N-])[C@@H](CO)O2)c(=O)[nH]c1=O,IIIB,,,MT-4,0.0019 µM
Cc1c(C(C)(C)C)s/c(=N\S(=O)(=O)c2cc(Cl)ccc2C#N)n1C,IIIB,,,MT-4,0.0083 µM
CC(C)=CCN1Cc2cccc3[nH]c(=S)n(c23)[C@@H](C)[C@@H]1C,,,,MT-4,≤0.028 µg/mL
Nc1ncnc2c1ncn2/C=C1/C[C@H]1CO,IIIB,,,MT-4,13 µM
CN(C)c1cccc2c(S(=O)(=O)N3CCSC3c3cccnc3)cccc12,IIIB,,,MT-4,3.35 µM
CC(C)CN(C[C@@H](O)[C@H](Cc1ccccc1)NC(=O)O[C@H]1CCOC1)S(=O)(=O)c1ccc(N)cc1,LAI,,,MT-2,0.036 µM
CCCCNP(=O)(OC[C@@H]1O[C@H](n2cc(C)c(=O)[nH]c2=O)C[C@H]1N=[N+]=[N-])OC[C@H]1O[C@@H](n2cc(C)c(=O)[nH]c2=O)C[C@@H]1N=[N+]=[N-],IIIB,,,MT-4,3 µM
O=C1c2ccccc2C(=O)N1CCOC(=S)N(C(=O)c1cccs1)c1ccc(Cl)cc1,IIIB,RT-K103R V179D P225H,,MT-4,>100 µM
CC(=O)c1ccc(C)cc1NC(C(N)=O)c1c(Cl)cccc1Cl,IIIB,,,CEM,0.4 µM
CC(C)c1s/c(=N\S(=O)(=O)c2cc(Cl)ccc2C#N)n(C)c1Cl,IIIB,,,MT-4,0.0047 µM
CN(C)C(=O)c1cnnn1[C@@H]1O[C@H](CO[Si](C)(C)C(C)(C)C)C2(OS(=O)(=O)C=C2N)[C@H]1O[Si](C)(C)C(C)(C)C,IIIB,,,MT-4,0.056 µM
CN(C)c1cccc2c(S(=O)(=O)N3CCSC3c3ccccn3)cccc12,IIIB,,,MT-4,>1000 µM
CCOCn1c(SC)nc(CC)c1Cc1ccccc1,IIIB,,,MT-4,>100 µM
NC1=Nc2c(ncn2CCC(/C=C/P(=O)(O)O)CO)C(=O)C1,RF,,,MT-4,48 µM
Nc1ccn([C@H]2CC[C@H](CO)S2)c(=O)n1,IIIB,,,MT-2,>100 µM
Cc1cn([C@H]2C[C@H](N=[N+]=[N-])[C@@H](CO)O2)c(=O)[nH]c1=O,HE-NEV,,5 d,MT-4,0.029 µM
CC(C)=CCN1Cc2cc(Cl)cc3[nH]c(=S)n(c23)C[C@@H]1C,,,,MT-4,0.0066 µg/mL
Cc1cn([C@H]2C[C@H](N=[N+]=[N-])[C@@H](CO)O2)c(=O)[nH]c1=O,ED,,,CEM + CEM-SS,0.001 µM
CCOCn1c(Cc2ccccc2)c(C(C)C)c(=O)[nH]c1=O,IIIB,,,MT-4,0.02 µM
COc1ccc(CN[C@@H](C(=O)N[C@H](C(=O)NCCN2CCOCC2)C(C)C)[C@H](O)[C@H](Cc2ccccc2)NC(=O)[C@@H](NC(=O)OCc2ccccc2)C(C)C)cc1,IIIB,,,MT-4,1.09 µM
O=C1c2ccccc2C(=O)N1CCOC(=S)N(C(=O)c1ccccc1)c1ccccc1,A17,RT-K103N Y181C,,MT-4,>100 µM
CC(=O)c1ccc(S(=O)(=O)N(CC(C)C)C[C@@H](O)[C@H](Cc2ccccc2)NC(=O)O[C@H]2CO[C@H]3OCC[C@H]32)cc1,PI RES(PR-L10M/I K20R M36I A71V G73S V77I I84V L90M) M2,PR-L10M/I K20R M36I A71V G73S V77I I84V L90M,,MT-4,0.0166 µM
Nc1ncnc2c1ncn2/C=C1/C[C@@H]1CO,IIIB,,,MT-4,50 µM
CC(C)c1nc(CN(C)C(=O)N[C@H](C(=O)N[C@@H](Cc2ccccc2)C[C@H](O)[C@H](Cc2ccccc2)NC(=O)OCc2cncs2)C(C)C)cs1,NL4-3 PR S12T I15V I19L M36I R41K H69K L89M CLONE 5( C ),,,MT-4,0.0462 µM
CCOCn1c([Se]c2ccccc2)c(CC)c(=O)[nH]c1=O,LAI,,,MT-2,<0.04 µM

The last 5 rows once more:

SMILES	strain	mutations	setting	cell line	value
O=C1c2ccccc2C(=O)N1CCOC(=S)N(C(=O)c1ccccc1)c1ccccc1	A17	RT-K103N Y181C		MT-4	>100 µM
CC(=O)c1ccc(S(=O)(=O)N(CC(C)C)C[C@@H](O)[C@H](Cc2ccccc2)NC(=O)O[C@H]2CO[C@H]3OCC[C@H]32)cc1	PI RES(PR-L10M/I K20R M36I A71V G73S V77I I84V L90M) M2	PR-L10M/I K20R M36I A71V G73S V77I I84V L90M		MT-4	0.0166 µM
Nc1ncnc2c1ncn2/C=C1/C[C@@H]1CO	IIIB			MT-4	50 µM
CC(C)c1nc(CN(C)C(=O)N[C@H](C(=O)N[C@@H](Cc2ccccc2)C[C@H](O)[C@H](Cc2ccccc2)NC(=O)OCc2cncs2)C(C)C)cs1	NL4-3 PR S12T I15V I19L M36I R41K H69K L89M CLONE 5( C )			MT-4	0.0462 µM
CCOCn1c([Se]c2ccccc2)c(CC)c(=O)[nH]c1=O	LAI			MT-2	<0.04 µM

Rows are shuffled and stem from different studies. ECn is the concentration giving n% inhibition of infection, replication or growth. Two numbers with a dash give a range or band.